Results of unrelated studies side by side (data: NIAID ChemDB).

Common to all: whole-cell or culture tests; species: Hepatitis C virus; method: replicon; measure: EC50

ECn is the concentration giving n% inhibition of infection, replication or growth. Blank or dashed fields: not listed here. Neighbouring rows are from separate reports. Two numbers with a dash give a range or band.

O=C(Nc1cccc(-c2cc(-c3c(Cl)cccc3Cl)no2)c1)C(F)F ; result: >10 µM
N#Cc1c(Nc2ccc(Br)cc2)s[nH]c1=O ; cell line: Huh7 ; result: <1 µM
Nc1ncnc2c1c([N+](=O)[O-])cn2[C@@H]1C=C(CO)[C@@H](O)[C@H]1O ; result: 31.5 µM
CC(C)(C)C(=O)SCCOP(=O)(OCCSC(=O)C(C)(C)C)OC[C@H]1O[C@@H]([n+]2c(=O)[nH]cc3[nH]ccc32)[C@H](O)[C@@H]1O ; result: 60 µM
COc1cc(OC)c(CC(=O)N/N=C/c2ccccc2OS(=O)(=O)c2ccc(C(F)(F)F)cc2)c(OC)c1 ; cell line: Huh7 ; result: 5–50 µM
Nc1ncnc2c1c(-c1ccoc1)cn2[C@@H]1O[C@H](CO)[C@@H](O)C1(F)F ; cell line: HCV replicon ; strain or isolate: 2a ; result: 10.3 µM
N#Cc1cccc(Nc2s[nH]c(=O)c2C#N)c1 ; cell line: Huh7 ; result: 1–10 µM
C[C@@]1(O)[C@H](O)[C@@H](CO)O[C@H]1n1cc(C#CCN)c2c(N)ncnc21 ; cell line: ET ; result: >50 µM
COc1ccc(-c2cnc3nc(N)nc(N4CCN(C(=O)Nc5cccc(C)c5)CC4)c3n2)cc1OC ; cell line: Huh7 ; strain or isolate: HCV replicon ; result: <0.3 µM
CNC(=O)c1c(-c2ccc(F)cc2)oc2cc(N(C)S(C)(=O)=O)c(OC)cc12 ; cell line: Huh7 ; result: <1 µM
O=C(Nc1cccc(-c2cc(-c3ccccc3OC(F)(F)F)no2)c1)C(Cl)Cl ; result: ≤10 µM
CCCCOC(=O)[C@H](C)NP(=O)(/C=C/[C@@H]1C[C@@H](O)[C@H](n2cnc(C(N)=O)n2)O1)N[C@@H](C)C(=O)OCCCC ; result: >100 µM
CCc1nc([N+](=O)[O-])c(Sc2ccccc2)n1Cc1ccccc1 ; result: 3 µg/mL
Nc1ncnc2c1c(-c1ccoc1)cn2[C@H]1O[C@H](CO)[C@@H](O)C1(F)F ; cell line: HCV replicon ; strain or isolate: 1b ; result: 1.98 µM
CC1(C)Oc2cc3oc(-c4cc(O)cc(OC[C@H]5O[C@@H](O)[C@H](O)[C@@H](O)[C@@H]5O)c4)cc3cc2CC1O ; result: >100 µM
COc1ccc2c(O[C@@H]3C[C@H]4C(=O)N[C@]5(C(=O)O)C[C@H]5/C=C\CCCCC[C@H](NC(=O)OC5CCCC5)C(=O)N4C3)cc(-c3csc(NC(C)C)n3)nc2c1 ; cell line: Huh7 ; result: 0.003 µM
COC(=O)[C@H](Cc1c[nH]c2ccccc12)NC(=O)c1ccc2nc(-c3ccccn3)c(-c3ccccn3)nc2c1 ; cell line: Huh7 ; result: >50 µM
COc1ccc(CC(=O)N/N=C/c2ccccc2OS(=O)(=O)c2ccc(C(F)(F)F)cc2)cc1Br ; cell line: Huh7 ; result: <5 µM
Nc1ncnc2c1c(-c1ccccc1)cn2[C@H]1O[C@H](CO)[C@@H](O)C1(F)F ; cell line: HCV replicon ; strain or isolate: 2a ; result: 10.75 µM
CCCCc1cccc(Cl)c1-c1cc(-c2cccc(NC(=O)C(Cl)Cl)c2)on1 ; result: ≤10 µM
Nc1ncnc2c1ncn2[C@@H]1O[C@H](/C=C/P(=O)(O)O)[C@@H](O)[C@H]1O ; result: >100 µM
COc1c(-c2cccc3ccccc23)cnn([C@@H]2C[C@H]3C(=O)N[C@]4(C(=O)NS(=O)(=O)C5CC5)CC4/C=C\CCCCCC[C@H](NC(=O)OC(C)(C)C)C(=O)N3C2)c1=O ; strain or isolate: 1b ; result: 0.0001 µM
O=C(CCl)Nc1cccc(-c2cc(-c3c(Cl)cccc3Cl)no2)c1 ; result: ≤10 µM
N#Cc1c(Nc2cccc(Br)n2)s[nH]c1=O ; cell line: Huh7 ; result: 10–50 µM
C#Cc1cn([C@@H]2O[C@H](CO)[C@@H](O)C2(F)F)c2ncnc(N)c12 ; cell line: HCV replicon ; strain or isolate: 2a ; result: 3.29 µM
COc1ccc(-c2cnc3nc(N)nc(N4CCN(C(=O)Cc5cccs5)CC4)c3n2)cc1OC ; cell line: Huh7 ; strain or isolate: HCV replicon ; result: <0.3 µM
CNC(=O)c1c(-c2ccc(F)cc2)oc2cc(N(CCOC)S(C)(=O)=O)c(OC(C)C)cc12 ; cell line: Huh7 ; result: <1 µM
COc1ccc(S(=O)(=O)Oc2ccccc2/C=N/NC(=O)Cc2cccc(OC)c2)cc1 ; cell line: Huh7 ; result: <5 µM
O=C(N[C@@H](Cc1c[nH]c2ccccc12)C(=O)O)c1ccc2nc(-c3ccc(F)cc3)c(-c3ccc(F)cc3)nc2c1 ; cell line: Huh7 ; result: >50 µM
O=C(Nc1cccc(-c2cc(-c3c(F)cccc3C(F)(F)F)no2)c1)C(Cl)Cl ; result: ≤10 µM
Nc1ncnc2c1c(-c1ccco1)cn2[C@H]1O[C@H](CO)[C@@H](O)C1(F)F ; cell line: HCV replicon ; strain or isolate: 1a ; result: 2.04 µM
CC[C@H](C)Nc1nc(N)nc2ncc(-c3ccc(OC)c(OC)c3)nc12 ; cell line: Huh7 ; strain or isolate: HCV replicon ; result: 0.3–1 µM
Nc1ncnc2c1c(I)cn2[C@@H]1O[C@H](CO)[C@@H](O)[C@H]1F ; cell line: HCV replicon ; strain or isolate: 2a ; result: 4.36 µM
O=C(Nc1cccc(-c2cc(-c3c(C4CC4)cccc3C(F)(F)F)no2)c1)C(Cl)Cl ; result: ≤10 µM
CCNC(=O)c1c(-c2ccc(F)cc2)oc2cc(-c3c(C)noc3C)c(OC)cc12 ; cell line: Huh7 ; result: <1 µM
C#Cc1cn([C@@H]2O[C@H](CO)[C@@H](O)[C@H]2F)c2ncnc(N)c12 ; cell line: HCV replicon ; strain or isolate: 1a ; result: 0.26 µM
O=C(O)c1ccc2nc(-c3ccccc3)c(-c3ccccc3)nc2c1 ; cell line: Huh7 ; result: >50 µM
CCOc1cc(O[C@@H]2C[C@H]3C(=O)N[C@]4(C(=O)NS(=O)OC5CC5)C[C@H]4/C=C\CCCCN(C)C(=O)[C@@H]3C2)c2ccc(OC)c(C)c2n1 ; strain or isolate: 1b ; result: 0.0043 µM
O=C(N[C@@H](Cc1c[nH]c2ccccc12)C(=O)O)c1ccc2nc(-c3ccccn3)c(-c3ccccn3)nc2c1 ; cell line: Huh7 ; result: >50 µM
CNC(=O)c1c(-c2ccc(CNC(C)=O)cc2)oc2ccc(OC(C)C)cc12 ; cell line: Huh7 ; result: <30 µM
CCN(C(=O)c1ccc(C)cc1)c1cc(-c2ccccc2)sc1C(=O)O ; cell line: Huh7 ; result: 10 µM
CNC(=O)c1c(-c2ccc(F)cc2)oc2cc(-c3nnc(C)o3)c(OC)cc12 ; cell line: Huh7 ; result: <10 µM
CS(=O)(=O)Nc1ccc2c(c1)S(=O)(=O)N=C(c1c(O)c3ccccc3n(NC3CCC3)c1=O)N2 ; cell line: Huh7 ; strain or isolate: 1b ; result: 0.0007 µM
COc1ccc(-c2cnc3nc(N)nc(N4CCN(CCc5ccccc5)CC4)c3n2)cc1OC ; cell line: Huh7 ; strain or isolate: HCV replicon ; result: <0.3 µM
O=c1c(O)c(-c2ccc(O)c(O)c2)oc2cc(O)c(O)c(O)c12 ; strain or isolate: genotype 2a JFH1 ; result: 11 µM
COc1ccc(-c2cnc3nc(N)nc(N4CCN(C(=O)Nc5ccccc5)CC4)c3n2)cc1OC ; cell line: Huh7 ; strain or isolate: HCV replicon ; result: <0.3 µM
CC(Nc1s[nH]c(=O)c1C#N)c1ccccc1 ; cell line: Huh7 ; result: 10–50 µM
COc1cc(OC)c2c(=O)cc(-c3ccc(OP(=O)(O)OP(=O)(O)O)c(N)c3)n(C)c2c1 ; cell line: Huh 5-2 ; result: >50 µg/mL
CS(=O)(=O)c1ccc(CC(=O)N/N=C/c2ccccc2OS(=O)(=O)c2ccc(C(F)(F)F)cc2)cc1 ; cell line: Huh7 ; result: >50 µM
N#Cc1c(Nc2ccc(F)cc2)s[nH]c1=O ; cell line: Huh7 ; result: 10–50 µM
O=C(Cc1ccccc1)N/N=C/c1ccccc1OS(=O)(=O)c1ccc(F)cc1F ; cell line: Huh7 ; result: >50 µM
N#Cc1c(Nc2ccc(Cl)cc2)s[nH]c1=O ; cell line: Huh7 ; result: 1–10 µM
O=S(=O)(N/N=C/c1ccccc1OS(=O)(=O)c1ccc(C(F)(F)F)cc1)c1ccccc1 ; cell line: Huh7 ; result: 5–50 µM
CCOc1nc(N)nc2ncc(-c3ccc(F)cc3)nc12 ; cell line: Huh7 ; strain or isolate: HCV replicon ; result: <0.3 µM
O=C(N[C@@H]1CCCCC/C=C\[C@@H]2C[C@@]2(C(=O)NS(=O)(=O)c2ccc3c(c2)B(O)OC3)NC(=O)[C@@H]2C[C@@H](OC(=O)N3Cc4cccc(F)c4C3)CN2C1=O)OC1CCCC1 ; result: 0.08 µM
CNC(=O)c1c(-c2ccccc2)oc2cc(OC)ccc12 ; cell line: Huh7 ; result: <10 µM
N#Cc1c(Nc2ccc([N+](=O)[O-])cc2)s[nH]c1=O ; cell line: Huh7 ; result: >50 µM
COc1cnc(O[C@@H]2C[C@H]3C(=O)N[C@]4(C(=O)NS(=O)(=O)C5CC5)C[C@H]4/C=C\CCCCC[C@@H](NC(=O)Nc4ccc5c(c4)B(O)OC5)C(=O)N3C2)c2cc(Cl)ccc12 ; strain or isolate: 1b ; result: 0.0039 µM
CNC(=O)c1c(-c2ccc(F)cc2)oc2cc(-c3nn[nH]n3)c(OC(C)C)cc12 ; cell line: Huh7 ; result: >30 µM
COc1cccc(C(F)(F)F)c1-c1cc(-c2cccc(NC(=O)C(Cl)Cl)c2)on1 ; result: ≤10 µM
Nc1ncnc2c1c(-c1cccs1)cn2[C@H]1O[C@H](CO)[C@@H](O)C1(F)F ; cell line: HCV replicon ; strain or isolate: 2a ; result: 2.24 µM
COc1ccc(-c2cnc3nc(N)nc(N4CCN(C(=O)NCc5ccc(F)cc5)CC4)c3n2)cc1OC ; cell line: Huh7 ; strain or isolate: HCV replicon ; result: <0.3 µM
CCCCOC(=O)[C@H](C)NP(=O)(/C=C/[C@@H]1C[C@@H](O)[C@H](n2cnc3c(N)nc(N)nc32)O1)N[C@@H](C)C(=O)OCCCC ; result: 10–100 µM
O=C(Cc1ccccn1)N/N=C/c1ccccc1OS(=O)(=O)c1ccc(C(F)(F)F)cc1 ; cell line: Huh7 ; result: <5 µM
Nc1nc(N)c2ncn([C@@H]3O[C@H](/C=C/P(=O)(O)O)C[C@H]3O)c2n1 ; result: >100 µM
COc1cccc(CC(=O)N/N=C/c2c(F)cccc2OS(=O)(=O)c2ccc(C)cc2)c1 ; cell line: Huh7 ; result: 5–50 µM
N#Cc1c(Nc2cc(Cl)cc(Cl)c2)s[nH]c1=O ; cell line: Huh7 ; result: <1 µM

8 of the rows above, restated:

structure	cell line	strain or isolate	result
O=C(N[C@@H](Cc1c[nH]c2ccccc12)C(=O)O)c1ccc2nc(-c3ccc(F)cc3)c(-c3ccc(F)cc3)nc2c1	Huh7	-	>50 µM
CC1(C)Oc2cc3oc(-c4cc(O)cc(OC[C@H]5O[C@@H](O)[C@H](O)[C@@H](O)[C@@H]5O)c4)cc3cc2CC1O	-	-	>100 µM
COc1cnc(O[C@@H]2C[C@H]3C(=O)N[C@]4(C(=O)NS(=O)(=O)C5CC5)C[C@H]4/C=C\CCCCC[C@@H](NC(=O)Nc4ccc5c(c4)B(O)OC5)C(=O)N3C2)c2cc(Cl)ccc12	-	1b	0.0039 µM
CCOc1cc(O[C@@H]2C[C@H]3C(=O)N[C@]4(C(=O)NS(=O)OC5CC5)C[C@H]4/C=C\CCCCN(C)C(=O)[C@@H]3C2)c2ccc(OC)c(C)c2n1	-	1b	0.0043 µM
CCCCc1cccc(Cl)c1-c1cc(-c2cccc(NC(=O)C(Cl)Cl)c2)on1	-	-	≤10 µM
O=C(N[C@@H](Cc1c[nH]c2ccccc12)C(=O)O)c1ccc2nc(-c3ccccn3)c(-c3ccccn3)nc2c1	Huh7	-	>50 µM
COc1cccc(CC(=O)N/N=C/c2c(F)cccc2OS(=O)(=O)c2ccc(C)cc2)c1	Huh7	-	5–50 µM
Nc1nc(N)c2ncn([C@@H]3O[C@H](/C=C/P(=O)(O)O)C[C@H]3O)c2n1	-	-	>100 µM